This note sets out measurements from patent US20230357367A1 (GENERATE BIOMEDICINES, published 2023).

Assay [1] deals with T1, SARS-CoV-2 BA.2+P1162L spike trimer (recombinant, in-house production) (SARS-CoV-2). Description: DELFIA, IgG titrated on coated spike trimer.
Assay [2] has as its target T2, SARS-CoV-2 BA.2+P1162S spike trimer (recombinant, in-house production) (SARS-CoV-2). Nature of the assay: DELFIA, IgG titrated on coated spike trimer.
Assay [3] deals with T1, SARS-CoV-2 BA.2+P1162L spike trimer …. Description: SPR, Fab over anti-His-captured trimer, 25 C. In general terms: In SPR one partner is held on a chip, and binding of the other changes the refractive index at the surface.
For assay [4], the target named is T2, SARS-CoV-2 BA.2+P1162S spike trimer …. Description: SPR, Fab over anti-His-captured trimer, 25 C.
Assay [5] deals with T1, SARS-CoV-2 BA.2+P1162L spike trimer …. Description: SPR, Fab over anti-His-captured trimer, 37 C.
Assay [6] addresses T2, SARS-CoV-2 BA.2+P1162S spike trimer …. Nature of the assay: SPR, Fab over anti-His-captured trimer, 37 C.

B1: Reference Antibody (antibody, V domains shown)
VH: EVQLVESGAEVKKPGESLKISCKGSGYTFTRYWIGWVRQMPGKGLEWMGIIYPGDSDTRYSPSFQGHVTISADKSISTAYLQWNSLKASDTAMYYCARLPQYCSNGVCQRWFDPWGQGTLVTVSS
VL: EIVLTQSPSSVSASVGDRVTITCRASQGISSWLAWYQQKPGKAPKLLIYAASSLQSGVPSRFSGSGSGTDFTLTISSLQPEDFATYYCQQGNSFPYTFGQGTNLEIK
Turning to B1, the results for the EC50 in assay [1] and in assay [2] were 0.067 µg/mL and 0.059 µg/mL, respectively.

B2: Reference Antibody Fab (Fab, V domains shown)
VH: EVQLVESGAEVKKPGESLKISCKGSGYTFTRYWIGWVRQMPGKGLEWMGIIYPGDSDTRYSPSFQGHVTISADKSISTAYLQWNSLKASDTAMYYCARLPQYCSNGVCQRWFDPWGQGTLVTVSS
VL: EIVLTQSPSSVSASVGDRVTITCRASQGISSWLAWYQQKPGKAPKLLIYAASSLQSGVPSRFSGSGSGTDFTLTISSLQPEDFATYYCQQGNSFPYTFGQGTNLEIK
Turning to B2, the Kd in assay [3] turned out to be 113 nM; in assay [4], 78 nM; in assay [5], 201 nM; in assay [6], 150 nM.

As a reminder, the EC50 is the concentration needed to bring the measured effect to its halfway point. What is called Kd is the equilibrium constant for the complex coming apart.
